Values of other authors as cited in patent publication US11819508B2 (priority 2020, dated 2023).

System: Covid-19
Details: inhaled interferon

B1: IFN β-1a: cytokine in the interferon family, inhaled (protein, UniProt P01574 22-187, looked up)
Interferon beta: MSYNLLGFLQRSSNFQCQKLLWQLNGRLEYCLKDRMNFDIPEEIKQLQQFQKEDAALTIYEMLQNIFAIFRQDSSSTGWNETIVENLLANVYHQINHLKTVLEEKLEKEDFTRGKLMSSLHLKRYYGRILHYLKAKEYSHCAWTIVRVEILRNFYFINRLTGYLRN
recovery of subjects hospitalized with Covid-19 (speed ambulation, decrease risk of developing severe disease, reduce breathlessness): improve recovery
